Earlier results, collected in publication PMC11768359, “2-Aminothiophene Derivatives—New Drug Candidates Against Leishmaniasis: Drug Design, Synthesis, Pharmacomodulation, and Antileishmanial Activity” (Pharmaceuticals, 2025).
The source's definition of the ratio is not given here.

Tested on: promastigotes of L. amazonensis
Settings: cited from earlier work

Compound | selectivity index (SI)
CC(C)(C)OC(=O)N1CCc2c(sc(N)c2C(N)=O)C1 [Compound 19] | 52
N#Cc1c(/N=C/c2c[nH]c3cccc(Br)c23)sc2c1CCCCCC2 [Compound 42, reference compound] | 75
Meglumine antimoniate [reference compound] | 1.01
